Measurements published in the supplement of paper PMC9931576.
Human monoclonal antibodies against the spike receptor-binding domain (heavy:light variable regions). IC50 against pseudoviruses bearing the spike of naturally observed variants; lower = stronger; >10 µg/ml means not reached at the top dose. No active / inactive call. The stated detection limit is 0.0005 µg/ml; values near or below 0.001 µg/ml lie at the floor of the assay.

B1: BD55-6505 (protein)
chain 1: DVQLVQSGAEVKKPGESLKISCKGSENNFVNHWIGWARQMPGKGLEWMGVIYPGDSETKYSPSFKGQVTFSVDTSISTAYLQWSSLKASDTAMYYCASRNWGYYSYGMDVWGQGTTVTVSS
chain 2: IQMTQSPSSLSASVGDRVTITCRASQGINNWLAWYQQKPGKAPELLIYAASTLQSGVPSRFSGSGSGTDFTLTIGSLQPEDFATYYCQQANTFPPTFGQGTRLEIK
B2: BD55-6488 (protein)
chain 1: EVQLVESGGDLVQPGGSLRLSCAASGFTFTSYPMHWVRHVPGRGLEFVSSITRNGDGSFYADAVKGRFTIFRDNSKNTLFLQMGGLTPEDSAVYYCARESWASTVVTLDFWGQGTLVTVSS
chain 2: DIQMTQSPSSLSASLGDSVTITCRASQSVSSYLNWYQQKPGKAPKLLIHGASTLQSGVPSRFRGSGSGTHFALTITSLQPEDFAIYYCQQSYTSPVYTFGPGTKLEIK
B3: BD55-6502 (protein)
chain 1: QVQLVESGGGVVQPGRSLRLSCAASGFTFTSYGIHWVRQAPGTGLEWVALISSDGYNEYYADSVKGRFTISRDNSKNKMFLQMNSLRAEDTAVYYCAKDAGHDYGGNWGGLLTDYWGQGTLVTVSS
chain 2: QSVLTQPPSVSGAPGQRVTISCTGSSSNIGAGYDVHWYQQLPGTAPKLLIYGNSNRPSGVPDRFSGSKSGTSASLAITGLQAEDEADYYCQSYVSGLSGYVLFGGGTKLTVL
B4: BD55-1256 (protein)
chain 1: QVQLVQSGAEVKRPGSSVKVSCKASGDTFSRYAISWVRQAPGQGLEWMGRIIPMFDKANYAEKFQGRVTMTADKSTITAYMDVSGLRSEDTATYYCGRSSFYDSSGAYIDSWGQGTLVTVSS
chain 2: EIVLTQSPGTLSLSPGERATLSCRASQTVGGSYLAWYQQKPGQAPRLLIYGASSRAAGIPDRFSGSGSGTDFTLTISRLEPEDFALYYCHQYASSPRTFGQGTKVEVK
B5: BD55-6504 (protein)
chain 1: EVQLVQSGAEVKKPGESLKISCKGSGDSFTNHWIAWVRQTPGKGLEWMGLIYPGDSDTRYSPSFQGQVTFSADKSISTAYLQWSRLKASDTAIYYCARHGGALREIDWQNNGMDIWGQGTTVTVSS
chain 2: DIQMTQSPSSLSASVGDRVTITCRASQRISNYLHWYQQKPGQAPKLLIYAASSLQSGVPSRFIGSGSGTDFTLTISNLQPEDFATYYCQQSYTIPTWTFGQGTRVEIK
B6: BD55-6494 (protein)
chain 1: QVQLVQSGPEVKKPGTSVKISCEASGFTFSSSAVQWVRQARGQRLEWIGWIVVGSGDTDYGQKFQKRVTVTRDMSTNTAYMELSSLKFEDTAVYYCATGVFHGLSAFDIWGLGTMVTVSS
chain 2: EIVLTQSPGTLSLSPGERVTLSCRASQSVSSFYLAWYQQKPGQAPRLLIWGASNRATGIPDRFSGSGSGTDFTLTISRLEPEDFAVYYCQHFDNSPLFGQGTKLEIK

Target: SARS-CoV-2 Omicron BA.1 spike pseudovirus
Assay: pseudovirus neutralization IC50; higher = weaker neutralization
Method: (§1)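 Single-round VSV luciferase pseudovirus mixed with antibody dilutions for 1 h and put on Huh-7 cells for about a day; IC50 from the dose curve.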

| Binder | pseudovirus neutralization IC50 [µg/mL] |
| --- | --- |
| B1 | > 10 |
| B2 | > 10 |
| B3 | > 10 |
| B4 | 2.35 |
| B5 | > 10 |
| B6 | > 10 |

Target: SARS-CoV-2 Omicron BA.2 spike pseudovirus
Assay: as above
Method: as §1

| Binder | pseudovirus neutralization IC50 [µg/mL] |
| --- | --- |
| B1 | > 10 |
| B2 | > 10 |
| B3 | > 10 |
| B4 | 1.85 |
| B5 | > 10 |
| B6 | > 10 |

Target: SARS-CoV-2 Omicron BA.2.75 spike pseudovirus
Assay: as above
Method: as §1

| Binder | pseudovirus neutralization IC50 [µg/mL] |
| --- | --- |
| B1 | > 10 |
| B2 | > 10 |
| B3 | > 10 |
| B4 | 0.0598 |
| B5 | > 10 |
| B6 | > 10 |

Target: SARS-CoV-2 Omicron BA.5 spike pseudovirus
Assay: as above
Method: as §1

| Binder | pseudovirus neutralization IC50 [µg/mL] |
| --- | --- |
| B1 | > 10 |
| B2 | > 10 |
| B3 | > 10 |
| B4 | > 10 |
| B5 | > 10 |
| B6 | > 10 |

Target: SARS-CoV-2 Omicron BQ.1.1 spike pseudovirus
Assay: as above
Method: as §1

| Binder | pseudovirus neutralization IC50 [µg/mL] |
| --- | --- |
| B1 | > 10 |
| B2 | > 10 |
| B3 | > 10 |
| B4 | > 10 |
| B5 | > 10 |
| B6 | > 10 |

Target: SARS-CoV-2 Omicron XBB spike pseudovirus
Assay: as above
Method: as §1

| Binder | pseudovirus neutralization IC50 [µg/mL] |
| --- | --- |
| B1 | > 10 |
| B2 | > 10 |
| B3 | > 10 |
| B4 | > 10 |
| B5 | > 10 |
| B6 | > 10 |

Target: SARS-CoV-2 early D614G spike pseudovirus
Assay: as above
Method: as §1

| Binder | pseudovirus neutralization IC50 [µg/mL] |
| --- | --- |
| B1 | > 10 |
| B2 | > 10 |
| B3 | > 10 |
| B4 | 0.001 |
| B5 | > 10 |
| B6 | > 10 |
